Test [1] concerns the target recombinant HeV G ectodomain (residues 71-604) (Hendra virus (HeV), UniProt O89343 71-604). The experiment in a line: Luminex bead assay (competitive).
Test [2] addresses T1, recombinant NiVMY G ectodomain (residues 71-602, Strep-tag) (Nipah virus Malaysia (NiVMY), UniProt Q9IH62). The experiment in a line: BLI.
Test [3] addresses recombinant HeV G ectodomain (residues 71-604) (Hendra virus (HeV), UniProt O89343). Kind of test: BLI. A general note: BLI is a label-free optical method that tracks binding on a fibre tip over time.
For test [4], the target named is T1, recombinant NiVMY G ectodomain …. Kind of test: cell-based or functional assay.

B1: ephrinB3-Fc chimaera (human ephrin-B3 residues 28-224, human IgG1 Fc) (Fc fusion)
chain: LSLEPVYWNSANKRFQAEGGYVLYPQIGDRLDLLCPRARPPGPHSSPNYEFYKLYLVGGAQGRRCEAPPAPNLLLTCDRPDLDLRFTIKFQEYSPNLWGHEFRSHHDYYIIATSDGTREGLESLQGGVCLTRGMKVLLRVGQSPRGGAVPRKPVSEMPMERDRGAAHSLEPGKENLPGDPTSNATSRGAEGPLPPPS
modifications: biotin (Luminex assay)
notes: also called EB3-Fc; EB3; source: Expi293F, transient transfection, purified
Regarding B1, in test [1], the binding result is listed as “binds”.

B2: 1E5 (chimeric macaque-human IgG1 antibody) (antibody, V domains shown)
VH: QVQLQESGPGVVKPSETLSLTCAVSGGSISDTYRWSWIRQPPGKGLEWIGYIYGSATSTYYNPSLSSRVTISKDMSKNQFSLNLNSVTAADTAVYYCARDYQYYYSGSYPTPHNWFDVWGPGVLVTVSS
VL: DIQMTQSPSSLSASVGDRVTITCRASQGIIDYLSWYQQKPGKAPKLLISTASNLESGVPSRFSGSGSGTEFTLTISSLQPEDFATYSCLQGYTTPYTFGQGTKVEIK
notes: also called bnAb 1E5; mAb 1E5; source: Expi293F, transient transfection, purified
Usually Kd stands for the constant that tells how readily two partners part at equilibrium. For B2, the Kd in test [2] and in test [3] was under 0.01 nM throughout. Also, the “Live virus neutralization IC50 (plaque reduction), NiVMY” value in test [4] was 0.03 µg/mL.

Values taken from article PMC11109247 (Nature Communications, 2024).
